Measured values from PubChem BioAssay AID504715 (Sanford-Burnham Center for Chemical Genomics, 2011).
The entries are a selection whose mix differs from that of the whole data set. The source made the active and inactive calls.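 How the source made its calls: active means compounds giving 40% or more inhibition at 20 µM in any one of the three replicates; inactive means the rest.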

By UniProt entry, the sequences of proteins in these tests, tags left out. Where a name states a change or a piece, a line headed by the entry shows the natural chain unless it says otherwise.
UniProt P12295: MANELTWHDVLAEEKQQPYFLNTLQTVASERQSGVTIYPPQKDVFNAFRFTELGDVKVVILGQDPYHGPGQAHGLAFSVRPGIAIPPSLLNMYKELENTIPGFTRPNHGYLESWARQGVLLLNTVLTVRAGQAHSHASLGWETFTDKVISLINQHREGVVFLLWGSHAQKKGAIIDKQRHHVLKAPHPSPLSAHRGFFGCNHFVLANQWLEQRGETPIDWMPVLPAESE

Target: Uracil-DNA glycosylase (Escherichia coli (strain K12)) (UniProt P12295)
Assay: E. coli UDG inhibitors, confirmation, counter-screen for APOBEC3G inhibitor project, biochemical, single concentration, fluorescence, FAM/TAMRA oligo (AID 504715);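 further: plate controls were DMSO wells with UDG and oligo for no effect and DMSO wells lacking both for full effect; inhibitors lower the FAM signal released by uracil excision and alkaline cleavage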
Settings: UDG counterscreen, at 20 µM, hits give high values

## O=P(Nc1nccs1)(c1ccccc1)c1nc2ccccc2s1 (stereo unspecified)
  inhibition: inactive: -4.26%
